Measurements reported in PubChem BioAssay AID504761 (Drosophila RNAi Screening Center, 2011).

Aim: 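Insect host genes that dengue virus relies on to spread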 (primary screen)
Cell system: D.Mel-2 cells from Drosophila
Reagents: long dsRNA against Drosophila genes
Treatment: infection with dengue virus type 2; dose and infection time not stated
Read-out: 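Per well on two replicate plates, imaging gave the percent of cells positive for viral envelope protein, ranked by infection, and a nuclear count of cells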
Direction: infection score: higher = more virus-infected cells; cell count: higher = more cells in the well
Active means: 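Low infection ranks in the two replicates (chance level up to 0.065) followed by a retest with a 1.5-fold or larger significant decrease, p below 0.05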
Meaning of the calls: active = confirmed: knock-down lowers infection; inactive = not picked or not confirmed
The screen tested about 22,000 reagents; this is a random part of those with a known target gene and a result. In the full data, 116 (0.52%) got an active call. 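Calls depend on retest data that are not deposited; infection was ranked per plate without normalising between plates; the unit of the infection score is not given.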 The raw values are shown without normalisation. Unmarked entries are inactive. The numbers tell different reagents against one gene apart. Names joined by + are all predicted targets of the reagent. Not given: the amount of reagent, the time to read-out.

no.	gene	dsRNA no.	infection score, replicate 1	infection score, replicate 2	cell count, replicate 1	cell count, replicate 2
1	CG17652	1	17	4.73	5394	6597
2	CG13559	1	6.68	8.45	6314	6924
3	Gcna (Germ cell nuclear acidic peptidase)	1	3.17	2.1	126	6479
4	Top3alpha (Topoisomerase 3alpha)	1	13.6	2.15	4997	6596
5	CG14535	1	3.01	6.13	6151	6755
6	opm (opossum)	1	3.59	1.55	6128	6343
7	opm (opossum)	2	2.86	19.6	5742	4881
8	opm (opossum)	3	1.27		629	428
9	CDase (Ceramidase)	1	4.82	40	6019	3790
10	SAK (Sak kinase)	1	4.77	9.22	5865	5802
11	SAK (Sak kinase)	2	0.76	31.1	6466	5838
12	SAK (Sak kinase)	3	12.9	0.57	5933	353
13	VhaPPA1-2 (Vacuolar H[+] ATPase PPA1 subunit 2)	1	11.8	12.5	5193	5388
14	VhaPPA1-2 (Vacuolar H[+] ATPase PPA1 subunit 2)	2	10.8	3.43	4844	6743
15	Plod (procollagen lysyl hydroxylase)	1	5.24	2.3	6837	7100
16	Plod (procollagen lysyl hydroxylase)	2	1.9	2.11	5780	6151
17	PIG-Wa (Phosphatidylinositol glycan anchor biosynthesis class W a)	1	2.57	1.82	6307	6493
18	inaF-A	1	32.8	20.1	5263	5405
19	Rrp4	1	19.4	6.84	5921	6013
20	Rrp4	2	12.3	16.1	4384	5231
21	APC4 (Anaphase Promoting Complex subunit 4)	1	2.5	6.74	6394	6159
22	APC4 (Anaphase Promoting Complex subunit 4)	2	10.3	12.7	6130	5975
23	mud (mushroom body defect)	1	1.63	1.28	6558	5712
24	Mct1 (Monocarboxylate transporter 1)	1	14.7	1.31	5964	6616
25	Mct1 (Monocarboxylate transporter 1)	2	23.1	11.5	6074	3599
26	Ir94f (Ionotropic receptor 94f)	1	5.46	3.77	6185	5281
27	Epg5 (ectopic P-granules autophagy protein 5)	1	3.2	1	5944	5598
28	Nf-YA (Nuclear factor Y-box A)	1	1.26	2.23	7000	7278
29	atl (atlastin)	1	4.73	2.55	5960	6983
30	atl (atlastin)	2	2.56	2.18	6181	6422
31	CG9933	1	5.71		6564	427
32	CG9933	2	13.4	12.4	4692	5114
33	CG6013	1	1.8	2.2	6286	6578
34	CG6013	2		10	423	5379
35	Plzf (Promyelocytic leukemia zinc finger)	1	12.6	13.9	6464	6270
36	nompB (no mechanoreceptor potential B)	1	12.1	2.11	5989	6479
37	nompB (no mechanoreceptor potential B)	2	1.53	1.02	6734	7154
38	CG33257	1	2.86	2	6018	6188
39	CG15484	1	7	8.76	5740	6613
40	CG15484	2	1.02	9.47	6299	6675
41	CG31272	1	1.22	2.42	6163	6077
42	CG5510	1	2.2	4.18	6446	6432
43	phtf	1	16.9	16.1	5750	5758
44	phtf	2	10.3	23.9	3577	5946
45	MCTS1 (Malignant T cell amplified sequence 1)	1	13.4	5.2	6121	6386
46	CG14506	1	2.65	8.64	6870	4188
47	CG15293	1	20.6	4.71	5662	849

9 entries from above, reformatted.
opm (opossum) #1 | infection score, replicate 1: 3.59; infection score, replicate 2: 1.55; cell count, replicate 1: 6128; cell count, replicate 2: 6343
opm (opossum) #2 | infection score, replicate 1: 2.86; infection score, replicate 2: 19.6; cell count, replicate 1: 5742; cell count, replicate 2: 4881
opm (opossum) #3 | infection score, replicate 1: 1.27; cell count, replicate 1: 629; cell count, replicate 2: 428
CDase (Ceramidase) | infection score, replicate 1: 4.82; infection score, replicate 2: 40; cell count, replicate 1: 6019; cell count, replicate 2: 3790
SAK (Sak kinase) #1 | infection score, replicate 1: 4.77; infection score, replicate 2: 9.22; cell count, replicate 1: 5865; cell count, replicate 2: 5802
SAK (Sak kinase) #2 | infection score, replicate 1: 0.76; infection score, replicate 2: 31.1; cell count, replicate 1: 6466; cell count, replicate 2: 5838
SAK (Sak kinase) #3 | infection score, replicate 1: 12.9; infection score, replicate 2: 0.57; cell count, replicate 1: 5933; cell count, replicate 2: 353
VhaPPA1-2 (Vacuolar H[+] ATPase PPA1 subunit 2) #1 | infection score, replicate 1: 11.8; infection score, replicate 2: 12.5; cell count, replicate 1: 5193; cell count, replicate 2: 5388
VhaPPA1-2 (Vacuolar H[+] ATPase PPA1 subunit 2) #2 | infection score, replicate 1: 10.8; infection score, replicate 2: 3.43; cell count, replicate 1: 4844; cell count, replicate 2: 6743

Further reagents follow:
no.	gene	dsRNA no.	infection score, replicate 1	infection score, replicate 2	cell count, replicate 1	cell count, replicate 2
48	Cib2 (Calcium and integrin binding family member 2)	1	1.91 (active)	2.43	6975	6798
49	LpR1 (Lipophorin receptor 1)	1	3.62	10.1	7076	6653
50	LpR1 (Lipophorin receptor 1)	2	3.46	4.14	5989	5773
51	LpR1 (Lipophorin receptor 1)	3	0.73	3.51	6261	6259
52	LpR1 (Lipophorin receptor 1)	4	11.8	21.3	3999	5466
53	E2f2 (E2F transcription factor 2)	1	17.7	21.4	5819	4897
54	CG12818	1	10.9	18.2	6187	6130
55	CG13204	1	2.91	3.98	6504	6306
56	CG13204	2	4.06	11.5	6696	5785
57	CAH15 (Carbonic anhydrase 15)	1	1.94	3.73	6495	6301
58	CAH15 (Carbonic anhydrase 15)	2	7.15	4.13	5342	6434
59	Uch-L5 (Ubiquitin carboxy-terminal hydrolase L5)	1	8.09	2.15	6055	6363
60	Uch-L5 (Ubiquitin carboxy-terminal hydrolase L5)	2	7.9	17.4	6396	6804
61	Prosbeta5 (Proteasome beta5 subunit)	1	1.66	4.44	2104	2569
62	Prosbeta5 (Proteasome beta5 subunit)	2			304	433
63	CG9698	1	3.59		3620	294
64	Hsc70-3 (Heat shock protein 70 cognate 3)	1	0.2	0.36	1483	1390
65	Hsc70-3 (Heat shock protein 70 cognate 3)	2	0.68	0.84	4124	4027
66	CG42284	1	3.74	1.5	6745	6679
67	CG42284	2	1	4.14	6374	6744
68	Acph-1 (Acid phosphatase 1)	1	4.82	14.6	6369	5589
69	CG15333	1	27	26.7	4446	3086
70	CG15333	2	17.3	7.72	5177	4610
71	CG1542	1	8.08	4.09	5150	5579
72	CG1542	2	10.1		1030	415
73	CG11843	1	5.18	8.66	6563	5462
74	Uhg2 + snoRNA:Me18S-G1620 + snoRNA:U14:30Ea	1	1.28	2.26	6398	5674
